The assay concerns the target GST-Fg γ^1–17 _(D16A) (human). Description: ELISA; human Fg or GST fusion protein coated (1 µg/well); His-tagged ClfA added in increasing concentrations in HBS (10 mM HEPES, 100 mM NaCl, 3 mM EDTA, pH 7.4), 25°C, 1 h; bound ClfA detected with anti-His antibodies; apparent Kd.

For the substance “ClfA_(229–545) (clumping factor A, N2N3 domains) (from UniProt Q53653 229-545) (domain or fragment)”, the Kd was 35 nM.

The values above are taken from publication PMC2582960, “A Structural Model of the Staphylococcus aureus ClfA–Fibrinogen Interaction Opens New Avenues for the Design of Anti-Staphylococcal Therapeutics” (PLoS Pathogens, 2008).
